Data as given in patent US7214506B2, “Method for treating onychomycosis” (Kaken Pharmaceutical Co., Ltd., priority 1999, dated 2007).

System: Trichophyton mentagrophytes KD-04 strain
Assay: Determination of drug remaining in treated skin pieces placed on fungus-containing agar
Conditions: skin taken five days after the last treatment, no drug removal; FIG. 1

Structure (SMILES)	growth inhibition of fungus around treated skin pieces (drug remaining in skin)
N#C/C(=C1/SCC(c2ccccc2Cl)S1)n1ccnc1 (centres unmarked) [Lanoconazole, lanoconazole]	the growth of fungus was completely inhibited
C=C1CCN([C@H](C)[C@](O)(Cn2cncn2)c2ccc(F)cc2F)CC1 [KP-103, (2R,3R)-2-(2,4-difluorophenyl)-3-(4-methylenepiperidine-1-yl)-1-(1H-1,2,4-triazole-1-yl)butane-2-ol]	the growth of fungus was slightly inhibited
